Taken from: PubChem BioAssay AID624099 (ICCB-Longwood, 2012)

Purpose: 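Knock-downs relieving repression by E2 of an HPV18 LCR luciferase reporter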 (primary screen)
System: human C33A cervical carcinoma cells (HPV-negative) stably expressing BPV1 E2 and an HPV18 LCR luciferase reporter
Reagents: siRNA pool against human genes, 40 nM
Timing: 72 h
Detection: 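HPV18 LCR reporter light per well, converted to plate-wise z-scores that exclude control wells, and averaged over triplicate plates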
Reading the numbers: mean z-score and z-score: higher = stronger reporter signal, weaker E2 silencing
Active means: 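Mean z ≥ 2 together with z ≥ 2 in two or more of the three replicates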
Here is an unselected part of about 21,000 deposited reagents. In the full data, 497 (2.4%) are marked active. 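Higher z means weaker E2 silencing; only reporter increases were scored, and knock-downs that hurt cell survival may mask genuine repressor factors.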 Entries without a mark were called inactive. The numbers tell different reagents against one gene apart.

Target gene	pool no.	mean z-score	z-score, replicate A	z-score, replicate B	z-score, replicate C
DLC1 (DLC1 Rho GTPase activating protein)	1	-0.03	-0.16	0.21	-0.14
DGLUCY (D-glutamate cyclase)	1	0.73	0.61	0.92	0.67
RPF2 (ribosome production factor 2 homolog)	1	-0.68	-0.98	-0.59	-0.48
SIT1 (signaling threshold regulating transmembrane adaptor 1)	1	-0.06	-0.21	0.01	0.03
ZNF318 (zinc finger protein 318)	1	1.08	0.72	1.16	1.38
H1-1 (H1.1 linker histone, cluster member)	1	-1.36	-1.55	-1.21	-1.3
LPIN3 (lipin 3)	1	-2.57	-2.48	-2.81	-2.43
DNALI1 (dynein axonemal light intermediate chain 1)	1	0.7	0.94	0.68	0.48
NAT2 (N-acetyltransferase 2)	1	-0.29	-0.23	-0.62	-0.03
RCHY1 (ring finger and CHY zinc finger domain containing 1)	1	0.47	0.68	0.27	0.47
ATAD5 (ATPase family AAA domain containing 5)	1	0.27	0.87	-0.07	0.01
ZNF107 (zinc finger protein 107)	1	0.13	0.36	0.02	0.02
PRKAG1 (protein kinase AMP-activated non-catalytic subunit gamma 1)	1	-0.84	-1.17	-0.97	-0.38
TEDC2 (tubulin epsilon and delta complex 2)	1	2.71 (active)	3.01	2.52	2.6
IWS1 (interacts with SUPT6H, CTD assembly factor 1)	1	-0.35	-0.35	-0.37	-0.32
WFDC3 (WAP four-disulfide core domain 3)	1	1.14	1.04	1.21	1.16
ADAR (adenosine deaminase RNA specific)	1	0.11	0.06	0	0.25
C1QTNF9B (C1q and TNF related 9B)	1	0.36	0.31	0.64	0.13
MYO16 (myosin XVI)	1	-0.09	-0.17	-0.2	0.1
CAMSAP3	1	0.53	0.99	0.46	0.14
KRTAP5-11 (keratin associated protein 5-11)	1	0.68	0.88	0.58	0.59
SLC38A12	1	0.24	-0.15	0.15	0.73
FAM218A (family with sequence similarity 218 member A)	1	1.91	1.55	1.83	2.36
RPL5P34 (ribosomal protein L5 pseudogene 34)	1	-2.44	-2.41	-3.03	-1.89
TPO (thyroid peroxidase)	1	-1.35	-1.28	-1.48	-1.28
FAM86B1	1	0.82	0.27	0.89	1.31
LOC389562 (retired record)	1	0.2	0.46	-0.06	0.2
TMEM88 (transmembrane protein 88)	1	-1.05	-0.93	-1.11	-1.12
ZNF346 (zinc finger protein 346)	1	0	0.09	-0.22	0.14
MSANTD2 (Myb/SANT DNA binding domain containing 2)	1	0.02	-0.57	-0.51	1.14
HTR2A (5-hydroxytryptamine receptor 2A)	1	0.12	0.5	0	-0.15
TMSB4X (thymosin beta 4 X-linked)	1	0.08	0.32	0.04	-0.13
SLC6A7	1	-0.6	-0.36	-0.67	-0.78
C6orf58 (chromosome 6 open reading frame 58)	1	2.73 (active)	2.39	3.01	2.79
CLECL1 (C-type lectin like 1)	1	-0.82	-0.64	-0.7	-1.14
CYP17A1 (cytochrome P450 family 17 subfamily A member 1)	1	0.36	0.55	0.11	0.42
BTF3L4 (basic transcription factor 3 like 4)	1	-0.59	-0.65	-0.63	-0.5
TAL1	1	-1.17	-1.13	-1.35	-1.03
ARHGEF10L (Rho guanine nucleotide exchange factor 10 like)	1	-0.97	-1.14	-1.17	-0.6
OXSR1 (oxidative stress responsive kinase 1)	1	0.62	0.49	0.39	0.98
MBD3L5 (methyl-CpG binding domain protein 3 like 5)	1	0.05	-0.05	0.25	-0.06
CYTH1 (cytohesin 1)	1	0.44	0.39	0.56	0.37
RPL21P131 (ribosomal protein L21 pseudogene 131)	1	-3.94	-3.96	-4.08	-3.8
HHIP (hedgehog interacting protein)	1	-0.31	-0.22	-0.53	-0.2
TMED2 (transmembrane p24 trafficking protein 2)	1	-0.06	-0.01	-0.18	0.03
CACNG2 (calcium voltage-gated channel auxiliary subunit gamma 2)	1	-0.28	-0.61	-0.05	-0.18
PGRMC1 (progesterone receptor membrane component 1)	1	-1.74	-1.66	-1.91	-1.63
ARF4 (ARF GTPase 4)	1	-0.36	-0.27	-0.34	-0.47
FAM90A3 (family with sequence similarity 90 member A3)	1	0.33	0.3	0.59	0.09
FANCB (FA complementation group B)	1	1.1	1.21	1.3	0.78
CRX (cone-rod homeobox)	1	0.29	0.18	0.34	0.35
LOC390335 (retired record)	1	-0.7	-0.92	-0.85	-0.32
SMG5 (SMG5 nonsense mediated mRNA decay factor)	1	0.1	-0.17	0.09	0.37
METTL25 (methyltransferase like 25)	1	0.36	0.2	0.43	0.46
MEGF8 (multiple EGF like domains 8)	1	-0.09	-0.12	-0.11	-0.04
MEGF8 (multiple EGF like domains 8)	2	1.22	0.95	1.62	1.08
LCE1E (late cornified envelope 1E)	1	-0.3	-0.32	-0.55	-0.03
STK11IP (serine/threonine kinase 11 interacting protein)	1	-0.22	-0.08	-0.1	-0.49
SLC10A2	1	-1.89	-1.75	-1.68	-2.25
PSG4 (pregnancy specific beta-1-glycoprotein 4)	1	0.55	0.57	0.37	0.72
DDN (dendrin)	1	0.19	0.61	-0.06	0.03
PRADC1 (protease associated domain containing 1)	1	-0.18	-0.23	-0.04	-0.26
LAPTM4B (lysosomal protein transmembrane 4 beta)	1	-0.74	-0.76	-0.46	-1
KCNK1 (potassium two pore domain channel subfamily K member 1)	1	-0.86	-0.88	-0.88	-0.82
GRK2 (G protein-coupled receptor kinase 2)	1	1.33	1.79	1.26	0.95
RPL23AP87 (ribosomal protein L23a pseudogene 87)	1	-0.5	-0.62	-0.57	-0.32
MTAP (methylthioadenosine phosphorylase)	1	-0.24	-0.38	0.02	-0.38
NUP210P1 (nucleoporin 210 pseudogene 1)	1	0.99	0.89	1.15	0.93
NOCT (nocturnin)	1	-0.59	-0.67	-0.51	-0.59
TEAD3 (TEA domain transcription factor 3)	1	-0.49	-0.41	-0.48	-0.58
IQCF3 (IQ motif containing F3)	1	-0.19	-0.27	-0.46	0.17
DEFB119 (defensin beta 119)	1	0.29	0.51	-0.11	0.46
KHDRBS1	1	0.21	0.71	0.04	-0.12
